Measurements as given in patent publication US7964624B1, “Inhibitors of serine proteases” (priority 2005, dated 2011).
Read-outs that look alike come from different tables or passages of the source.

Amino acid sequences for entries named in this document (tags omitted). Chains listed by the source or under a name are the forms on record and can include a tag or linker. Residues count along the entry.
UniProt P27958, 1658-1711 partner limits assumed: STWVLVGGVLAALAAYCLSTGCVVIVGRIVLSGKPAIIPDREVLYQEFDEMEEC
UniProt P27958, 1027-1711 with tags or gaps with the stated changes: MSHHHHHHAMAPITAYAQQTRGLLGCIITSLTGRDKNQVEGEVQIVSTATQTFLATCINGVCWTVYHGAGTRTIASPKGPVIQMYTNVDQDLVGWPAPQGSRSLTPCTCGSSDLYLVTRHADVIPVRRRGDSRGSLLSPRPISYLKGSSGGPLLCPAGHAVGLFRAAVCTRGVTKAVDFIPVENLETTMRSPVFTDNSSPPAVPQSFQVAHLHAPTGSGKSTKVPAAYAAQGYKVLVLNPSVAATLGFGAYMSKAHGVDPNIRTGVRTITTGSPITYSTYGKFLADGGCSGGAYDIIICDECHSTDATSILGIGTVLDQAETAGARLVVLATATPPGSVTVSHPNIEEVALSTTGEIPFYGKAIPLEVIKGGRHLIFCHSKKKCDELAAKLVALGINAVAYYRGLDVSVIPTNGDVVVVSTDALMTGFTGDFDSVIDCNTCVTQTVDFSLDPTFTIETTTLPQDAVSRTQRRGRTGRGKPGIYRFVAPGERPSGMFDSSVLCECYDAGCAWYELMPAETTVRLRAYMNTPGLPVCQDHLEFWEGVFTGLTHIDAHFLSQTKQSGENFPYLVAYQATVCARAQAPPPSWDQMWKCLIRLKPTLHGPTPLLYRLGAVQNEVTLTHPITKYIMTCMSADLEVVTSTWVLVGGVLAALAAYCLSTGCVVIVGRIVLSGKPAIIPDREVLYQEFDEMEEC

Molecular target: full-length hepatitis C viral protein NS3•4A (Hepatitis C virus genotype 1a, UniProt P27958)
Assay: HCV NS3 Peptide Cleavage Assay (Enzyme Assay 2), apparent Ki
[1] = read-out: Enzyme Assay 2, HCV NS3 Peptide Cleavage Assay, apparent Ki
[2] = read-out: Enzyme Assay 2 (HCV NS3 Peptide Cleavage Assay) activity, apparent Ki class

CCOc1c(C)cc(C2=NO[C@]3(C2)C[C@@H](C(=O)N[C@@H](CC2CC2)C(=O)C(=O)NC)N(C(=O)[C@@H](NC(=O)[C@@H]2C[C@H]2c2ccccc2)C(C)(C)C)C3)cc1C
Ki [1]: < 100 nM

CCC[C@H](NC(=O)[C@@H]1C[C@]2(CC(c3cc(Cl)c(OC)cc3OC)=NO2)CN1C(=O)[C@@H](NC(=O)[C@H]1C[C@@H]1c1ccccc1)C(C)(C)C)C(=O)C(N)=O
Ki [2]: < 100 nM

CCC[C@H](NC(=O)[C@@H]1C[C@]2(CC(c3cc(C)c(OC)c(C)c3)=NO2)CN1C(=O)[C@@H](NC(=O)OC1CCCC1)C(C)(C)C)C(=O)C(=O)NC
Ki [2]: < 100 nM

CNC(=O)C(=O)[C@H](CC1CC1)NC(=O)[C@@H]1C[C@]2(CC(c3cc(C)c(OC)c(C)c3)=NO2)CN1C(=O)[C@@H](NC(=O)[C@@H]1C[C@H]1C(C)C)C(C)(C)C
Ki [1]: < 100 nM

CCNC(=O)C(=O)[C@H](CC1CC1)NC(=O)[C@@H]1C[C@]2(CC(c3cc(Cl)c(OC)cc3OC)=NO2)CN1C(=O)[C@@H](NC(=O)[C@@H]1C[C@H]1c1ccccc1)C(C)(C)C
Ki [1]: < 100 nM

CCC[C@@H](NC(=O)[C@@H]1C[C@]2(CC(c3cc(C)c(OC)c(C)c3)=NO2)CN1C(=O)[C@@H](NC(=O)CC1CCCCC1)C(C)(C)C)C(=O)C(=O)NC1CC1
Ki [2]: 100 to 500 nM

CCC[C@H](NC(=O)[C@@H]1C[C@]2(CC(c3cc(C)c(OCC)c(Cl)c3)=NO2)CN1C(=O)[C@@H](NC(=O)[C@@H]1C[C@H]1c1ccccc1)C(C)(C)C)C(=O)C(=O)NC
Ki [1]: < 100 nM

CCC[C@H](NC(=O)[C@@H]1C[C@]2(CC(c3cc(Cl)c(OC)cc3OCC)=NO2)CN1C(=O)[C@@H](NC(=O)CC1CCCCC1)C(C)(C)C)C(=O)C(=O)NC1CC1
Ki [1]: < 100 nM

CCC[C@H](NC(=O)[C@@H]1C[C@]2(CC(c3cccc(Cl)c3)=NO2)CN1C(=O)[C@@H](NC(=O)[C@@H]1C[C@H]1C1CCCCC1)C(C)(C)C)C(=O)C(N)=O
Ki [1]: < 100 nM

CCC[C@H](NC(=O)[C@@H]1C[C@]2(CC(c3cc(C)c(OC)c(C)c3)=NO2)CN1C(=O)[C@@H](NC(=O)OC(C)(C)C)C(C)(C)C)C(=O)C(N)=O
Ki [2]: < 100 nM

CCOc1c(C)cc(C2=NO[C@]3(C2)C[C@@H](C(=O)N[C@@H](CC2CC2)C(=O)C(=O)NC)N(C(=O)[C@@H](NC(=O)CC2CCCCC2)C(C)(C)C)C3)cc1C
Ki [2]: < 100 nM

COc1c(C)cc(C2=NO[C@]3(C2)C[C@@H](C(=O)N[C@@H](CC2CC2)C(=O)C(N)=O)N(C(=O)[C@@H](NC(=O)CC(C)(C)C)C(C)(C)C)C3)cc1C
Ki [2]: < 100 nM

CNC(=O)C(=O)[C@H](CC1CC1)NC(=O)[C@@H]1C[C@]2(CC(c3cccc(Cl)c3)=NO2)CN1C(=O)[C@@H](NC(=O)O[C@H]1C[C@@H]1c1ccccc1)C(C)(C)C
Ki [2]: 100 to 500 nM

CNC(=O)C(=O)[C@H](CC1CC1)NC(=O)[C@@H]1C[C@]2(CC(c3cc(C)c(OC)c(C)c3)=NO2)CN1C(=O)[C@@H](NC(=O)CC(C)(C)C)C(C)(C)C
Ki [2]: < 100 nM

CCC[C@H](NC(=O)[C@@H]1C[C@]2(CC(c3cc(C)c(OC)cc3OC)=NO2)CN1C(=O)[C@@H](NC(=O)OC1CCCC1)C(C)(C)C)C(=O)C(=O)NC1CC1
Ki [1]: < 100 nM

CNC(=O)C(=O)[C@H](CC1CC1)NC(=O)[C@@H]1C[C@]2(CC(c3cccc(Cl)c3)=NO2)CN1C(=O)[C@@H](NC(=O)[C@H]1CC1(F)F)C(C)(C)C
Ki [2]: < 100 nM

CCC[C@H](NC(=O)[C@@H]1C[C@]2(CC(c3cc(C)c(OCC)c(Cl)c3)=NO2)CN1C(=O)[C@@H](NC(=O)OC1CCCC1)C(C)(C)C)C(=O)C(=O)NC1CC1
Ki [2]: 100 to 500 nM

CCC[C@H](NC(=O)[C@@H]1C[C@]2(CC(c3cccc(Cl)c3)=NO2)CN1C(=O)[C@@H](NC(=O)C1(C)COC1)C(C)(C)C)C(=O)C(=O)NC1CC1
Ki [1]: 100 to 500 nM

CNC(=O)C(=O)[C@H](CC1CC1)NC(=O)[C@@H]1C[C@]2(CC(c3cc(C)c(OC)c(C)c3)=NO2)CN1C(=O)[C@@H](NC(=O)OC(C)(C)C)C(C)(C)C
Ki [2]: < 100 nM

CCOc1c(C)cc(C2=NO[C@]3(C2)C[C@@H](C(=O)N[C@@H](CC2CC2)C(=O)C(=O)NC)N(C(=O)[C@@H](NC(=O)[C@@H]2C[C@H]2c2ccccc2)C(C)(C)C)C3)cc1Cl
Ki [1]: < 100 nM

CNC(=O)C(=O)[C@H](CC1CC1)NC(=O)[C@@H]1C[C@]2(CC(c3cccc(Cl)c3)=NO2)CN1C(=O)[C@@H](NC(=O)[C@H]1CC12CCCCC2)C(C)(C)C
Ki [1]: < 100 nM

CCOc1cc(OC)c(C2=NO[C@]3(C2)C[C@@H](C(=O)N[C@@H](CC2CC2)C(=O)C(=O)NC)N(C(=O)[C@@H](NC(=O)CC2CCCCC2)C(C)(C)C)C3)cc1Cl
Ki [1]: < 100 nM

CCC[C@H](NC(=O)[C@@H]1C[C@]2(CC(N3CCCCC3)=NO2)CN1C(=O)[C@@H](NC(=O)OC1CCCC1)C(C)(C)C)C(=O)C(=O)NC1CC1
Ki [1]: 100 to 500 nM

CCC[C@H](NC(=O)[C@@H]1C[C@]2(CC(c3cccc(Cl)c3)=NO2)CN1C(=O)[C@@H](NC(=O)[C@H]1C[C@@H]1c1c[nH]cn1)C(C)(C)C)C(=O)C(=O)NC1CC1
Ki [1]: < 100 nM

CNC(=O)C(=O)[C@H](CC1CC1)NC(=O)[C@@H]1C[C@]2(CC(c3cc(Cl)c(OC)cc3OC)=NO2)CN1C(=O)[C@@H](NC(=O)OC(C)(C)C)C(C)(C)C
Ki [2]: < 100 nM

CCC[C@H](NC(=O)[C@@H]1C[C@]2(CC(c3cc(Cl)ccc3OCC)=NO2)CN1C(=O)[C@@H](NC(=O)CC1CCCCC1)C(C)(C)C)C(=O)C(=O)NC1CC1
Ki [1]: < 100 nM

CNC(=O)C(=O)[C@H](CC1CC1)NC(=O)[C@@H]1C[C@]2(CC(c3cccc4cccnc34)=NO2)CN1C(=O)[C@@H](NC(=O)CC1CCCCCC1)C(C)(C)C
Ki [2]: < 100 nM

CCNC(=O)C(=O)[C@H](CC1CC1)NC(=O)[C@@H]1C[C@]2(CC(c3cc(C)c(OCC)c(Cl)c3)=NO2)CN1C(=O)[C@@H](NC(=O)CC1CCCCC1)C(C)(C)C
Ki [1]: < 100 nM

COc1cc(OC)c(C2=NO[C@]3(C2)C[C@@H](C(=O)N[C@@H](CC2CC2)C(=O)C(N)=O)N(C(=O)[C@@H](NC(=O)CC2CCCCC2)C(C)(C)C)C3)cc1C
Ki [1]: < 100 nM

CCC[C@H](NC(=O)[C@@H]1C[C@]2(CC(c3cc(Cl)ccc3OC)=NO2)CN1C(=O)[C@@H](NC(=O)CC(C)(C)C)C(C)(C)C)C(=O)C(=O)NC1CC1
Ki [2]: < 100 nM

CNC(=O)C(=O)[C@H](CC1CC1)NC(=O)[C@@H]1C[C@]2(CC(c3cccc(Cl)c3)=NO2)CN1C(=O)[C@@H](NC(=O)OC1CCCC1)C(C)(C)C
Ki [1]: < 100 nM

CNC(=O)C(=O)[C@H](CC1CC1)NC(=O)[C@@H]1C[C@]2(CC(c3cc(C)c(OC)c(C)c3)=NO2)CN1C(=O)[C@@H](NC(=O)[C@H]1C[C@@H]1c1ccccc1)C(C)(C)C
Ki [1]: < 100 nM

CCOc1c(C)cc(C2=NO[C@]3(C2)C[C@@H](C(=O)N[C@@H](CC2CC2)C(=O)C(N)=O)N(C(=O)[C@@H](NC(=O)[C@@H]2C[C@H]2c2ccccc2)C(C)(C)C)C3)cc1C
Ki [1]: < 100 nM

CNC(=O)C(=O)[C@H](CC1CC1)NC(=O)[C@@H]1C[C@]2(CC(c3cccc(Cl)c3)=NO2)CN1C(=O)[C@@H](NC(=O)C1C(C)(C)C1(C)C)C(C)(C)C
Ki [1]: 100 to 500 nM

CCNC(=O)C(=O)[C@H](CC1CC1)NC(=O)[C@@H]1C[C@]2(CC(c3cccc(Cl)c3)=NO2)CN1C(=O)[C@@H](NC(=O)CC1CCCCCC1)C(C)(C)C
Ki [1]: < 100 nM

CCC[C@H](NC(=O)[C@@H]1C[C@]2(CC(c3cc(C)c(OCC)c(C)c3)=NO2)CN1C(=O)[C@@H](NC(=O)OC1CCCC1)C(C)(C)C)C(=O)C(=O)NC
Ki [1]: 100 to 500 nM

CCC[C@H](NC(=O)C1C[C@]2(CC(c3cccc(Cl)c3)=NO2)CN1C(=O)[C@@H](NC(=O)C1C2CCCCC21)C(C)(C)C)C(=O)C(=O)NC1CC1 (stereo partly shown)
Ki [1]: < 100 nM

CCC[C@H](NC(=O)[C@@H]1C[C@]2(CC(c3cc(C)c(OCC)c(C)c3)=NO2)CN1C(=O)[C@@H](NC(=O)[C@@H]1C[C@H]1c1ccccc1)C(C)(C)C)C(=O)C(=O)NC1CC1
Ki [1]: < 100 nM

CCC[C@H](NC(=O)[C@@H]1C[C@]2(CC(c3cc(Cl)c(OC)cc3OC)=NO2)CN1C(=O)[C@@H](NC(=O)[C@@H]1C[C@H]1c1ccccc1)C(C)(C)C)C(=O)C(=O)NC
Ki [1]: < 100 nM

CCC[C@H](NC(=O)[C@@H]1C[C@]2(CC(c3cc(Cl)ccc3OC)=NO2)CN1C(=O)[C@@H](NC(=O)CC(C)(C)C)C(C)(C)C)C(=O)C(N)=O
Ki [2]: < 100 nM

CNC(=O)C(=O)[C@H](CC1CC1)NC(=O)[C@@H]1C[C@]2(CC(c3cc(C)c(OC)c(C)c3)=NO2)CN1C(=O)[C@@H](NC(=O)CC1CCCCCC1)C(C)(C)C
Ki [2]: < 100 nM

CNC(=O)C(=O)[C@H](CC1CC1)NC(=O)[C@@H]1C[C@]2(CC(c3cc(C)c(OC)c(Cl)c3)=NO2)CN1C(=O)[C@@H](NC(=O)[C@@H]1C[C@H]1c1ccccc1)C(C)(C)C
Ki [1]: < 100 nM

CNC(=O)C(=O)[C@H](CC1CC1)NC(=O)[C@@H]1C[C@]2(CC(c3cccc(Cl)c3)=NO2)CN1C(=O)[C@@H](NC(=O)C1(C#N)CC1)C(C)(C)C
Ki [1]: 100 to 500 nM

CCC[C@H](NC(=O)[C@@H]1C[C@]2(CC(c3cccc(Cl)c3)=NO2)CN1C(=O)[C@@H](NC(=O)[C@@H]1C[C@H]1CC(C)C)C(C)(C)C)C(=O)C(N)=O
Ki [1]: < 100 nM

COc1c(C)cc(C2=NO[C@]3(C2)C[C@@H](C(=O)N[C@@H](CC2CC2)C(=O)C(N)=O)N(C(=O)[C@@H](NC(=O)OC2CCCC2)C(C)(C)C)C3)cc1C
Ki [2]: < 100 nM

CCC[C@H](NC(=O)[C@@H]1C[C@]2(CC(c3cccc(Cl)c3)=NO2)CN1C(=O)[C@@H](NC(=O)[C@@H]1C[C@H]1CC(C)C)C(C)(C)C)C(=O)C(=O)NC1CC1
Ki [1]: < 100 nM
